Measurements taken from article PMC3663898 (Antiviral research, 2013).

Conditions: rats, single oral dose 25, 50, 100 or 200mg/kg, 7-day observation

CC(C)(C)C(=O)N(CCCCCCN1C[C@H](O)[C@@H](O)[C@H](O)[C@H]1CO)C1CCCCC1 [IHVR17028, N-cyclohexyl-N-(6-((2R,3R,4R,5S)-3,4,5-trihydroxy-2-(hydroxymethyl)piperidin-1-yl)hexyl)pivalamide]
survival in single oral dose MTD study: survived
